Data reported in article PMC10870819.
Like-named read-outs stand apart in the source and are kept apart here.

Columns and labels:
[1] = molecular target: SARS-CoV-2 PT RBD (residues 319-541) (SARS-CoV-2) (UniProt P0DTC2); assay: SPR
[2] = molecular target: SARS-CoV-2 PT RBD (residues 319-541) (SARS-CoV-2) (UniProt P0DTC2); assay: SPR; remark: listed apart in the source

With hare ACE2 (residues 1-615) the Kd [1] was 171 nM.

For “rabbit ACE2 (residues 1-615), 293F-expressed (from UniProt G1TEF4)”, the Kd [2] was 155 nM and the Kd [1] was 161 nM.
